# Results taken from PubChem BioAssay AID1448 (The Scripps Research Institute Molecular Screening Center, 2008).
# Protein sequences, listed by entry. Tags and fused reporters are not part of them. Lines headed by an entry give the natural chain unless they say otherwise; changes in a name come on top.
# UniProt Q8TDD5: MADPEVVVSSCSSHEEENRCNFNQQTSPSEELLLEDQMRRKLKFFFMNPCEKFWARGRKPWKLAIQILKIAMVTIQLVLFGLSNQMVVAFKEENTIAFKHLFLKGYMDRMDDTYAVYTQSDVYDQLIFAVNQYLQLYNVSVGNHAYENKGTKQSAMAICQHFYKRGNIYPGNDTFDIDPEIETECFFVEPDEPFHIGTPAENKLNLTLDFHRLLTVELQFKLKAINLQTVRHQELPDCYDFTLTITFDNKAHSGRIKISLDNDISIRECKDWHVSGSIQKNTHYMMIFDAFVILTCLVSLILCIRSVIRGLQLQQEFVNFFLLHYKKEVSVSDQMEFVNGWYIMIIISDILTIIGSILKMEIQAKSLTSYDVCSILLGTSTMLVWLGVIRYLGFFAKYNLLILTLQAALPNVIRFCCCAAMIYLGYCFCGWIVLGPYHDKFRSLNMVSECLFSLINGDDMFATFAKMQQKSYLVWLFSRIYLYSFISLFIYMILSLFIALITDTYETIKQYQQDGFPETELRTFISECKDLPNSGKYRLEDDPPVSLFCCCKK
# The list shows a part of the results, in another mix than the full data. The source made the active and inactive calls.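 The calls were made as follows: active = activation above its plate's cutoff, the mean activation of the plate's test wells plus 3 SD (cut at about 12% in these data); inactive = the rest.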
# Target: Mucolipin-3 (Homo sapiens) (UniProt Q8TDD5)
# Assay: activators of mucolipin-3 cation channel – cell-based, HEK293 TRPML3-YFP, Fluo-8 calcium fluorescence, 3 µM, primary screen (AID 1448);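 also: 0% = DMSO only wells and 100% = carbachol wells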
# Settings: at 3 µM, active compounds read high, 100% = the carbachol control signal
# Outline: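 Test system: TRPML3-YFP stable HEK293 cells. Doses: single point at 3 µM. Incubation: dye loading 1 h 37 °C then 30 min ambient, 125 s read. Signal: Fluo-8 calcium dye fluorescence, ex 470-495, em 515-575 nm. Measure: percent activation from peak-to-basal fluorescence ratio, scaled between DMSO and carbachol.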
row,Compound,activation
1,CCOP(=O)(Nc1ccc(C)cn1)OCC,inactive: 0.73%
2,CC(C)(C)C(=O)NC(Sc1ncccn1)C(Cl)(Cl)Cl (centres undefined),inactive: 0.64%
3,Clc1n[nH]nc1-c1nn[nH][15n]1,inactive: 0.33%
4,CN(C(=O)Cc1ccc(Cl)c(Cl)c1)[C@@H]1CCCC[C@H]1N1CCCC1,inactive: 0.97%
5,CC(C)/C=N\N=C(\N)N[N+](=O)[O-],inactive: 0.7%
6,CC1(CBr)Cn2c(nc3ccccc3c2=O)S1 (centres undefined),inactive: 0.28%
7,O=[As](O)(c1ccccc1Br)c1ccccc1Br,inactive: 0.67%
8,CC1CCC(C(C)C)C(OP(=O)(Nc2ccccn2)c2ccccc2)C1 (centres undefined),inactive: 0.04%
9,Cc1nn(-c2ccccc2)c2c1P(=O)(N1CCOCC1)N(C)C(c1ccccc1)=N2 (centres undefined),inactive: 0.72%
10,CN(C)C1(CNC(=O)c2ccc(S(C)(=O)=O)cc2)CCCCC1,inactive: 0.89%
11,O=C(/C=C/c1ccccc1)OC1CN2CCC1CC2 (centres undefined),inactive: -0.69%
12,O=P1(Nc2ncccn2)COc2ccccc2OC1,inactive: 0.57%
13,Nc1cccc([As](=O)(O)c2ccccc2)c1,inactive: 0.65%
14,Cc1ccc(OCC(=O)OC2CN3CCC2CC3)cc1 (centres undefined),inactive: -0.13%
15,O=[As](O)(c1cccs1)c1cccs1,inactive: 1.12%
16,O=P1(Nc2ccc(Br)cn2)COc2ccccc2OC1,inactive: 0.34%
17,O=P(Nc1nccs1)(Oc1ccccc1)Oc1ccccc1,inactive: 0.63%
18,O=P(Nc1nccs1)(c1ccccc1)c1nc2ccccc2s1 (centres undefined),inactive: 0.88%
19,CCOP1(=S)c2c(C)nn(CCC#N)c2N=C(c2ccccc2F)N1C (centres undefined),inactive: 0.55%
20,CS(=O)(=O)c1cc([N+](=O)[O-])c2no[n+]([O-])c2c1,inactive: 0.88%

row,Compound,activation
1,O=C(O)COc1ccc([As](=O)(O)O)cc1[N+](=O)[O-],inactive: -0.69%
2,Nc1ccccc1[As](=O)(O)c1ccccc1,inactive: 0.53%
3,CCOP1(=S)c2c(C)nn(CCC#N)c2N=C(c2ccc(F)cc2)N1C (centres undefined),inactive: -0.47%
4,O=[N+]([O-])c1ccc2c(c1)nnn2O,inactive: 0.61%
5,O=C(OC1CN2CCC1CC2)c1ccc(Cl)cc1 (centres undefined),inactive: 0.38%
6,O=[As](O)(O)c1cccnc1,inactive: 0.41%
7,COc1cc(C(=O)NCC2(N3CCOCC3)CCCCC2)cc(Cl)c1OC(C)C,inactive: 0.78%
8,Cc1cccc(OCC(=O)OC2CN3CCC2CC3)c1 (centres undefined),inactive: 0.31%
9,O=[As](O)(c1cccc(O)c1)c1cccc(O)c1,inactive: 0.89%
10,Cc1ccc(NCCc2c([N+](=O)[O-])cc([N+](=O)[O-])cc2[N+](=O)[O-])cc1,inactive: 0.69%
11,Nc1cccc2c([As](=O)(O)O)cccc12,inactive: 2.25%
12,CCCOP(=S)(Nc1nc(N)cc(=O)[nH]1)OCCC,inactive: 1.02%
13,CCOP(=O)(Nc1cccc2ccccc12)OCC,inactive: 0.41%
14,COc1cc(C2NCCC3(OCCO3)C2(C)C)cc(OC)c1OC (centres undefined),inactive: -0.08%
15,Cc1c2c(nc3ccccc13)SC(C(Cl)Cl)C2 (centres undefined),inactive: -0.3%
16,Cc1cc(=O)[nH]c(N[N+](=O)[O-])n1,inactive: 0.97%
17,O=C(OC1CN2CCC1CC2)C12CC3CC(CC(C3)C1)C2 (centres undefined),inactive: 0.89%
18,COc1cc(I)ccc1[As](=O)(O)O,inactive: 1.12%
19,COc1ccc2nc(NP(=O)(c3ccccc3)c3ccccc3)sc2c1,inactive: -0.84%
20,COc1ccc(N/C(=N/P(=O)(N2CCOCC2)N2CCOCC2)N2CCOCC2)cc1,inactive: 0.95%

row,Compound,activation
1,O=[As](O)(c1ccc(O)cc1)c1ccccc1O,inactive: -0.04%
2,C[As](=O)(O)c1cccc(C(=O)O)c1,inactive: 0.66%
3,Cc1ccc(OP(=O)(Nc2ccc([N+](=O)[O-])cn2)Oc2ccc(C)cc2)cc1,inactive: 0.35%
4,Cc1ccc2nc3c(c(C)c2c1)CC(C(Cl)Cl)S3 (centres undefined),inactive: -0.36%
5,ClCCSc1nnc(-c2cccnc2)o1,inactive: 0.81%
6,CC(C)c1ccc(OP(=O)(Nc2ccccn2)Oc2ccccc2F)cc1 (centres undefined),inactive: -0.01%
7,O=[N+]([O-])c1cc([N+](=O)[O-])c(-c2ccn[nH]2)s1,inactive: 0.1%
8,CC(C)NC(=O)NP(=O)(Oc1ccccc1)Oc1ccccc1,inactive: 0.48%
9,CCN(CC)C(=S)SC(NC=O)C(Cl)(Cl)Cl (centres undefined),inactive: 0.28%
10,CCOC(=O)Nc1ccc([As](=O)(O)O)c(O)c1,inactive: 0.74%
11,Cc1cc(SC(NC(=O)c2ccccc2)C(Cl)(Cl)Cl)nc(C(C)C)n1 (centres undefined),inactive: 0.43%
12,CCOC(=O)Nc1cccc([As](=O)(O)O)c1,inactive: -0.68%
13,Cc1cc(SC(NC=O)C(Cl)(Cl)Cl)ncn1 (centres undefined),inactive: -0.2%
14,O=P(Nc1ccccn1)(c1cccc2ccccc12)c1cccc2ccccc12,inactive: 1.37%
15,O=[N+]([O-])c1ccc(Nc2ccc(Oc3ccc([N+](=O)[O-])cc3[N+](=O)[O-])cc2)c([N+](=O)[O-])c1,inactive: 0.67%
16,COP1(=S)c2c(C)nn(CCC#N)c2N=C(c2ccc(F)cc2)N1C (centres undefined),inactive: 1.42%
17,O=C(COc1ccccc1)OC1CN2CCC1CC2 (centres undefined),inactive: 0.21%
18,CCOC(=O)c1ccc(NC(=O)C(C)(CCl)SC)cc1 (centres undefined),inactive: 1.44%
19,CCC(C)N(CC(C)C)C(=S)SC(NC(C)=O)C(Cl)(Cl)Cl (centres undefined),inactive: -0.11%
